Experimental data published in patent US11135228B2, “Cysteinyl-proresolving mediators that promote resolution of infection and organ protection” (THE BRIGHAM AND WOMEN'S HOSPITAL, priority 2014, dated 2021).

Key:
[1] = LC-MS-MS MRM quantification of sulfido-conjugate levels in human tissues; settings: endogenous level
[2] = LC-MS-MS MRM quantification of sulfido-conjugate levels in mouse tissues; settings: endogenous level
[3] = mean ± SEM, n 6 mice, lavage volume 5 ml

13-cysteinyl, 14-hydroxy-docosahexaenoic acid [MCTR3]
Human autopsy spleen ([1]; mean ± SEM, n 3 patients): 33.1 ± 6.2 pg/100 mg | Human sepsis plasma ([1]; mean ± SEM, n 10 patients): 8.7 ± 2.5 pg/mL

13-glutathionyl, 14-hydroxy-docosahexaenoic acid [SCI]
Human autopsy spleen ([1]; mean ± SEM, n 3 patients): 13.6 ± 5.7 pg/100 mg | Human sepsis plasma ([1]; mean ± SEM, n 10 patients): 3.1 ± 0.9 pg/mL

CCCCC/C=C\C\C=C/C=C/C=C/[C@@H](SC[C@H](NC(=O)CC[C@H](N)C(=O)O)C(=O)NCC(=O)O)[C@@H](O)CCCC(=O)O [LTC4]
24 h Resolving mouse exudates [2, 3]: 8.3 ± 2.2 pg/lavage | Human sepsis plasma [1]: ^a (Below limits, ~1 pg) | Human autopsy spleen ([1]; mean ± SEM, n 3 patients): 240.7 ± 73.5 pg/100 mg

CCCCC/C=C\C\C=C/C=C/C=C/[C@@H](SC[C@H](N)C(=O)NCC(=O)O)[C@@H](O)CCCC(=O)O [LTD4]
24 h Resolving mouse exudates [2, 3]: 4.9 ± 1.3 pg/lavage | Human sepsis plasma [1]: ^a (Below limits, ~1 pg) | Human autopsy spleen ([1]; mean ± SEM, n 3 patients): 49.3 ± 26.7 pg/100 mg

CCCCC/C=C\C\C=C/C=C/C=C/[C@@H](SC[C@H](N)C(=O)O)[C@@H](O)CCCC(=O)O [LTE4]
24 h Resolving mouse exudates [2]: ^a (Below limits, ~1 pg) | Human autopsy spleen [1]: ^a (Below limits, ~1 pg) | Human sepsis plasma ([1]; mean ± SEM, n 10 patients): 12.9 ± 2.9 pg/mL

CC/C=C\CC(O)C(/C=C/C=C/C=C\C/C=C\C/C=C\CCC(=O)O)SCC(NC(=O)CCC(N)C(=O)O)C(=O)NCC(=O)O (stereo not shown) [PCTR1, 16-glutathionyl, 17-hydroxy-4Z,7Z,10,12,14,19Z-docosahexaenoic acid]
24 h Resolving mouse exudates [2, 3]: 3.9 ± 2.6 pg/lavage | Human sepsis plasma [1]: ^a (Below limits, ~1 pg) | Human autopsy spleen ([1]; mean ± SEM, n 3 patients): 83.1 ± 24.5 pg/100 mg

CC/C=C\C[C@H](O)[C@@H](/C=C/C=C/C=C\C/C=C\C/C=C\CCC(=O)O)SC[C@H](N)C(=O)NCC(=O)O [PCTR2, 16-cysteinylglycinyl, 17-hydroxy-4Z,7Z,10,12,14,19Z-docosahexaenoic acid]
24 h Resolving mouse exudates [2, 3]: 3.4 ± 2.8 pg/lavage | Human autopsy spleen [1]: ^a (Below limits, ~1 pg) | Human sepsis plasma [1]: ^a (Below limits, ~1 pg)

CC/C=C\C[C@H](O)[C@@H](/C=C/C=C/C=C\C/C=C\C/C=C\CCC(=O)O)SC[C@H](N)C(=O)O [PCTR3, 16-cysteinyl, 17-hydroxy-4Z,7Z,10,12,14,19Z-docosahexaenoic acid]
24 h Resolving mouse exudates [2]: ^a (Below limits, ~1 pg) | Human autopsy spleen ([1]; mean ± SEM, n 3 patients): 124.5 ± 51.7 pg/100 mg | Human sepsis plasma ([1]; mean ± SEM, n 10 patients): 1.5 ± 0.8 pg/mL

CC/C=C\C[C@H](O)/C=C/C=C\C=C\C=C\[C@@H](SC[C@H](NC(=O)CC[C@H](N)C(=O)O)C(=O)NCC(=O)O)[C@@H](O)C/C=C\CCC(=O)O [RCTR1, 8-glutathionyl, 7,17-hydroxy-4Z,9,11,13Z,15E,19Z-docosahexaenoic acid]
24 h Resolving mouse exudates [2, 3]: 5.8 ± 2.7 pg/lavage | Human sepsis plasma [1]: ^a (Below limits, ~1 pg) | Human autopsy spleen ([1]; mean ± SEM, n 3 patients): 36.0 ± 11.2 pg/100 mg

CC/C=C\C[C@H](O)/C=C/C=C\C=C\C=C\[C@@H](SC[C@H](N)C(=O)NCC(=O)O)[C@@H](O)C/C=C\CCC(=O)O [RCTR2, 8-cysteinylglycinyl, 7,17-hydroxy-4Z,9,11,13Z,15E,19Z-docosahexaenoic acid]
24 h Resolving mouse exudates [2]: ^a (Below limits, ~1 pg) | Human autopsy spleen [1]: ^a (Below limits, ~1 pg) | Human sepsis plasma [1]: ^a (Below limits, ~1 pg)

CC/C=C\CC(O)/C=C/C=C\C=C\C=C\C(SCC(N)C(=O)O)C(O)C/C=C\CCC(=O)O (stereo not shown) [RCTR3, 8-cysteinyl, 7,17-hydroxy-4Z,9,11,13Z,15E,19Z-docosahexaenoic acid]
24 h Resolving mouse exudates [2]: ^a (Below limits, ~1 pg) | Human autopsy spleen [1]: ^a (Below limits, ~1 pg) | Human sepsis plasma [1]: ^a (Below limits, ~1 pg)

CCC=CCC=CCC(O)C(C=CC=CC=CCC=CCCC(=O)O)SCC(N)C(=O)NCC(=O)O (stereo not shown) [SCII, 13-cysteinylglycinyl, 14-hydroxy-docosahexaenoic acid]
24 h Resolving mouse exudates [2, 3]: 2.4 ± 1.1 pg/lavage | Human sepsis plasma [1]: ^a (Below limits, ~1 pg) | Human autopsy spleen ([1]; mean ± SEM, n 3 patients): 22.9 ± 6.3 pg/100 mg
